Measured values from several laboratories, pooled; numbers as filed in NIAID ChemDB.

Common to all: growth or infection tests; species: HIV-1; cells: MAGI; read-out: EC50

ECn is the concentration giving n% inhibition of infection, replication or growth. Rows are shuffled and stem from different studies. Blank or dashed fields: not listed here.

| SMILES | strain | changes | method | result |
|---|---|---|---|---|
| [N-]=[N+]=NCCCCCCCCCCCC(=O)OC[C@@H]1O[C@H](n2cc(F)c(N)nc2=O)CS1 | BaL | - | single cycle / luminescence | 0.2 µM |
| CC(C)Oc1ccc(OC(C)C)c2c3nc4nc(nc5[nH]c(nc6nc(nc([nH]3)c12)C(SCCCC(=O)O)=C6SCCCC(=O)O)c1c(OC(C)C)ccc(OC(C)C)c51)C(SCCCC(=O)O)=C4SCCCC(=O)O | IIIB | - | β-galactosidase | <5 µg/mL |
| O=C(O)c1c(Br)c(Br)c(Br)c(Br)c1-c1c2ccc(=O)cc-2oc2cc(O)ccc12 | IIIB | - | β-galactosidase | 41.7 µM |
| COc1ccc(CN(CCN2CCCCC2)CC2CCCN(C3CCCC3)C2)cc1O | LAI | - | β-galactosidase | 5.2 µM |
| Cc1ccc(NC(=O)NCCSCc2ccc(CNC(C)C)o2)cc1Cl | - | - | RT activity | >100 µM |
| CCCCCCCCCCCCCC(=O)OC[C@@H]1O[C@H](n2cc(F)c(N)nc2=O)CS1 | IIIB | - | single cycle / luminescence | 0.1 µM |
| C[C@H]1CN2CCC[C@H]3CCCCC[C@@H]4C(=O)[C@@H](C)CN5CCC[C@@H](CCCCC[C@H](C1=O)[C@@H]32)[C@H]45 | MN | - | β-galactosidase | 46.8 µM |
| CC(C)(C)NC(=O)[C@@H]1CN(Cc2cccnc2)CCN1C[C@@H](O)C[C@@H](Cc1ccccc1)C(=O)N[C@H]1c2ccccc2C[C@H]1O | - | - | β-galactosidase | >5 µg/mL |
| O=C1O[C@H]2[C@@H]3OC(=O)c4cc(O)c(O)c(O)c4-c4c(cc(O)c(O)c4O)C(=O)OC[C@H]2O[C@@H](OC(=O)c2cc(O)c(O)c(O)c2)[C@@H]3OC(=O)c2cc(O)c(O)c3c2[C@@H]2C1=CC(=O)[C@](O)(O3)C2(O)O | NNRTI-resistant (RT K103N) ARP1010 | RT-K103N | - | 0.83 µg/mL |
| Oc1cccc(CN(CCN2CCCCC2)CC2CCCN(C3CCCC3)C2)c1 | BaL | - | β-galactosidase | >10 µM |
| Cc1cc(S(N)(=O)=O)ccc1NC(=O)COc1ccc(Cl)cc1C(=O)c1cc(Cl)cc(C#N)c1 | NNRTI-resistant (RT V106A) | RT-V106A | β-galactosidase | 0.0034 µM |
| CC(=O)c1ccc(C)cc1NC(C(N)=O)c1c(Cl)cccc1Cl | IIIB | - | MTT | 0.045 µM |
| NCCCCN(Cc1nc2ccccc2[nH]1)C1CCCc2cccnc21 | - | - | - | 0.0015 µM |
| c1cc(CN2CCCNCCNCCCNCC2)ccc1CN1CCCNCCNCCCNCC1 | LAI | - | β-galactosidase | 0.011 µM |
| N#C[C@]1(CO)O[C@@H](n2cnc3c(N)ncnc32)C[C@@H]1O | 3TC-resistant (RT M184V) | RT-M184V | β-galactosidase | 2.28 µM |
| O=C(O)/C=C/c1ccc[c]([Sb](=[O])([OH])[OH])c1 | 92US727 R5 clinical isolate | - | β-galactosidase | <10 µM |

Repeating the final 2 entries:

SMILES	strain	changes	method	result
N#C[C@]1(CO)O[C@@H](n2cnc3c(N)ncnc32)C[C@@H]1O	3TC-resistant (RT M184V)	RT-M184V	β-galactosidase	2.28 µM
O=C(O)/C=C/c1ccc[c]([Sb](=[O])([OH])[OH])c1	92US727 R5 clinical isolate	-	β-galactosidase	<10 µM